Anti-infective test results gathered from many reports (values: NIAID ChemDB through PubChem).

All rows: cytotoxicity tests; cell line: H9; endpoint: CC50

An empty or dashed field is not shown. Neighbouring rows are from separate reports. CCn: concentration that lowers growth or viability of the cells by n%. a–b is a range or a potency band.

compound | read by | value
COc1cc([C@@H]2c3cc(O)c(O)cc3[C@H](O)[C@H]3COC(=O)[C@H]23)cc(OC)c1OC | - | 9.57 µg/mL
Cc1cc(=O)c2ccc3c(c2o1)[C@@H](OC(=O)C12CCC(C)(C(=O)O1)C2(C)C)[C@@H](OC(=O)C(C)C)C(C)(C)O3 | - | 40.7 µM
CC(C)=CCC/C(C)=C/C[N@@+]12CCc3cc(O)c(O)cc3[C@H]1Cc1ccc(O)c(O)c1C2 | - | >25 µg/mL
CC(C)[C@H](NC(=O)OCCN1CCOCC1)C(=O)N[C@@H](Cc1ccccc1)[C@@H](O)[C@H](Cc1ccccc1)NC(=O)[C@@H](NC(=O)OCc1ccccc1)C(C)C | trypan blue | >100 µM
C[C@@H]1CC[C@]2(C(=O)O)CC[C@]3(C)C(=CCC4[C@@]5(C)C[C@@H](O)[C@H](O)C(C)(C)C5CC[C@]43C)C2[C@H]1C | - | 8 µg/mL
CC(=O)O[C@@H]1[C@H](OC(=O)CC(C)C)c2c(ccc3ccc(=O)oc23)OC1(C)C | - | 4–20 µg/mL
O=C(/C=C/c1ccc(O)cc1)O[C@@H]1Cc2c(O)cc(O)cc2O[C@@H]1c1cc(O)c(O)c(O)c1 | - | 35 µg/mL
CCOCc1cc(=O)c2ccc3c(c2o1)[C@@H](OC(=O)C12CCC(C)(C(=O)O1)C2(C)C)[C@@H](OC(=O)C12CCC(C)(C(=O)O1)C2(C)C)C(C)(C)O3 | - | 15.1 µM
COc1cccc2sc(-c3ccccc3)cc(=O)c12 | - | 7 µg/mL
Oc1ccc([C@H]2Oc3cc(O)cc(O)c3C[C@H]2O)cc1 | - | 100 µg/mL
CC1NCCc2cc(O)c(O)cc21 | - | >25 µg/mL
CC1(C)Oc2ccc3ccc(=O)oc3c2[C@@H](OC(=O)C23CCC(C)(C(=O)O2)C3(C)C)[C@H]1OC(=O)C12CCC(C)(C(=O)O1)C2(C)C | - | 35 µM
O=C(Oc1cc([C@H]2Oc3cc(O)cc(O)c3C[C@H]2OC(=O)c2cc(O)c(O)c(O)c2)cc(O)c1O)c1cc(O)c(O)c(O)c1 | - | 40 µg/mL
Cc1cn([C@H]2C[C@H](N=[N+]=[N-])[C@@H](CO)O2)c(=O)[nH]c1=O | - | 1875 µM
COc1cc2c(cc1OC)[C@@H](Nc1ccc(F)cc1)[C@H]1COC(=O)[C@@H]1[C@@H]2c1cc(OC)c(O)c(OC)c1 | - | 0.166 µg/mL
CC(C)=CCC/C(C)=C/CN1CCc2cc(O)c(O)cc2[C@H]1Cc1ccc(O)c(O)c1 | - | 24.59 µg/mL
CCC(C)C(=O)O[C@@H]1c2c(ccc3ccc(=O)oc23)OC(C)(C)[C@@H]1OC(=O)C(C)CC | - | 47–233 µM
CC(C)[C@H](NC(=O)N(C)Cc1ccccn1)C(=O)N[C@@H](Cc1ccccc1)[C@H](O)[C@@H](O)[C@H](Cc1ccccc1)NC(=O)[C@@H](NC(=O)N(C)Cc1ccccn1)C(C)C | trypan blue | >100 µM
COc1cc(/C=C/C(=O)OCCCc2ccc(O[C@@H](COC(=O)/C=C/c3ccc(O)c(OC)c3)[C@@H](O)c3ccc(O)c(OC)c3)c(O)c2)ccc1O | - | 16.64 µg/mL
CC1(C)Oc2ccc3c(=O)ccoc3c2[C@@H](OC(=O)C23CCC(C)(C(=O)O2)C3(C)C)[C@H]1OC(=O)C12CCC(C)(C(=O)O1)C2(C)C | - | 14.2 µM
O=c1cc(-c2ccccc2)sc2cc(O)ccc12 | - | 40 µg/mL
CC1(C)CC[C@]2(C(=O)O)CC[C@]3(C(=O)/C=C/c4ccc(O)c(O)c4)C(=CCC4[C@@]5(C)CC[C@H](O)C(C)(C)C5CC[C@]43C)[C@@H]2C1 | - | 19.87 µg/mL
CC(=O)OC1C=C2CC[C@H]3[C@@H]4CC[C@H]([C@H](C)C(=O)O)[C@@]4(C)CC[C@@H]3[C@@]2(C)CC1 | trypan blue | >10 µg/mL
CC(C)=CCC/C(C)=C/CC[C@@]1(C)C=Cc2c(cc(C)c(C(=O)O)c2O)O1 | - | 21.1 µg/mL
CC(C)Nc1cccnc1N1CCN(C(=O)c2cc3cc(NS(C)(=O)=O)ccc3[nH]2)CC1 | - | >100 µM
CC1(C)CC[C@]2(C(=O)O)CC[C@]3(C)C(=CC[C@@H]4[C@@]5(C)CC[C@H](O)C(C)(C)[C@@H]5CC[C@]43C)[C@@H]2C1 | - | 21.8 µg/mL
COc1cc2ccc(=O)oc2c(CC=C(C)C)c1OC | cell count | 21.1 µg/mL
C[C@@H]1CC[C@]2(C(=O)O)CC[C@]3(C)C(=CCC4[C@]5(C)C(CC[C@]43C)C(C)(C)[C@@H](O)[C@@H](O)[C@H]5O)C2[C@]1(C)O | - | >20 µg/mL
C[C@]12CCC3C(CC[C@@]45O[C@@H]4C(=O)C(C(N)=O)C[C@]35C)C1CC[C@@H]2O | - | 7.8 µM
COc1cc2c(cc1OC)[C@@H](Nc1ccc([N+](=O)[O-])cc1)[C@H]1COC(=O)[C@@H]1[C@@H]2c1cc(OC)c(OC)c(OC)c1 | - | 5.29 µg/mL
CC(=O)O[C@@H]1[C@@H]2[C@@H](OC(C)=O)[C@@]34O[C@@]2(C)COC(=O)c2cccnc2[C@@H](C)[C@H](C)C(=O)O[C@@H]([C@H](OC(C)=O)[C@H](OC(C)=O)[C@@]3(COC(=O)c2ccoc2)[C@@H]1OC(C)=O)C4(C)O | - | >100 µg/mL
Cc1cc(=O)oc2c3c(ccc12)SC[C@H](OC(=O)C12CCC(C)(C(=O)O1)C2(C)C)[C@@H]3OC(=O)C12CCC(C)(C(=O)O1)C2(C)C | - | 155 µM
CC(=O)Oc1cc2sc(-c3ccccc3)cc(=O)c2cc1OC(C)=O | - | 3 µg/mL
CC(C)(Cl)C(O)COc1c2ccoc2cc2oc(=O)ccc12 | - | 26.3 µg/mL
COC(=O)C[C@@H]1C(=O)CC[C@H](C)C(=O)O[C@@H]2[C@@H]3[C@@H](OC(C)=O)[C@@]45O[C@@]3(C)COC(=O)c3cnccc3[C@@H](C)[C@](C)(O)C(=O)O[C@@H]([C@H](OC(C)=O)[C@H](OC(C)=O)[C@@]4(COC1=O)[C@@H]2OC(C)=O)C5(C)O | - | >100 µg/mL
COc1cc([C@@H]2c3cc4c(cc3[C@@H](O)[C@H]3COC(=O)[C@H]23)OCO4)cc(OC)c1O | - | 0.171 µg/mL
Cc1cc(=O)[nH]c2cc(O)ccc12 | - | 125 µM
COc1cc2c[n+](C)c3c4cc5c(cc4c(CC(C)=O)cc3c2cc1OC)OCO5 | cell count | 0.209 µg/mL
O=C(O)P(=O)(O)O | - | >680 µM
C[C@]12CCC3C(CC[C@@]45O[C@@H]4C(=O)C(S(C)(=O)=O)C[C@]35C)C1CC[C@@H]2O | - | 5.46 µM
O=c1c(O[C@@H]2O[C@H](CO)[C@@H](O)[C@H](O)[C@H]2O)c(-c2ccc(O)cc2)oc2cc(O)cc(O)c12 | - | <100 µg/mL
C[C@@H]1CC[C@]2(C(=O)O)CC[C@]3(C)C(=CCC4[C@@]5(C)C(O)C(=O)[C@H](O)C(C)(C)C5CC[C@]43C)C2[C@]1(C)O | - | 4 µg/mL
O=c1[nH]cnc2c1ncn2[C@H]1CC[C@@H](CO)O1 | - | >1 µg/mL
Cc1cn([C@H]2C[C@H](N=[N+]=[N-])[C@@H](CO)O2)c(=O)[nH]c1=O | - | 1875 µM
O=c1cc(-c2ccc(O)cc2)oc2cc(O)cc(O)c12 | - | 35 µg/mL
Cc1cn([C@H]2C[C@H](N=[N+]=[N-])[C@@H](CO)O2)c(=O)[nH]c1=O | - | 1875 µM
CC(C)=CCC/C(C)=C/C[N@+]12CCc3cc(O)c(O)cc3[C@H]1Cc1ccc(O)c(O)c1C2 | - | 19.84 µg/mL
Cc1cn([C@H]2C[C@H](N=[N+]=[N-])[C@@H](CO)O2)c(=O)[nH]c1=O | - | >0.048 µM
CC(C)[C@H](NC(=O)OCc1ccccn1)C(=O)NC(Cc1ccccc1)C(O)C(F)(F)C(Cc1ccccc1)NC(=O)OC(C)(C)C | trypan blue | 35 µM
Cc1cn([C@H]2C[C@H](N=[N+]=[N-])[C@@H](CO)O2)c(=O)[nH]c1=O | cell count | 500 µg/mL
COc1cc([C@@H]2Oc3c(OC)cc(CCCO)cc3[C@H]2CO)ccc1O | - | >25 µg/mL
Nc1cccc2c(=O)cc(-c3ccccc3)sc12 | - | 15 µg/mL
Cc1cn([C@H]2C[C@H](F)[C@@H](CO)O2)c(=O)[nH]c1=O | - | 5 µM
Cc1cn([C@H]2C[C@H](F)[C@@H](CO)O2)c(=O)[nH]c1=O | - | >0.016 µM
O=C(O[C@@H]1Cc2c(O)cc(O)c([C@@H]3c4c(O)cc(O)cc4O[C@H](c4cc(O)c(O)c(O)c4)[C@H]3O)c2O[C@@H]1c1cc(O)c(O)c(O)c1)c1cc(O)c(O)c(O)c1 | - | 9 µg/mL
CC(=O)OC1C=C2CC[C@H]3[C@@H]4CC[C@H]([C@H](C)C(=O)OC[C@H]5O[C@@H](n6cc(C)c(=O)[nH]c6=O)C[C@@H]5N=[N+]=[N-])[C@@]4(C)CC[C@@H]3[C@@]2(C)CC1 | trypan blue | <5 µg/mL
Cc1oc2c3c(ccc2c(=O)c1C)OC(C)(C)[C@H](OC(=O)C12CCC(C)(C(=O)O1)C2(C)C)[C@@H]3OC(=O)C12CCC(C)(C(=O)O1)C2(C)C | - | 11.3 µM
Cc1cn([C@H]2C[C@H](N=[N+]=[N-])[C@@H](CO)O2)c(=O)[nH]c1=O | - | 90 µM
Nc1ccn([C@H]2CC[C@@H](CO)O2)c(=O)n1 | - | 13 µM
CC1(C)CC[C@]2(C(=O)O)CC[C@]3(C)C(=CCC4[C@@]5(C)CC[C@H](OC(=O)C(C)(C)CC(=O)O)C(C)(C)C5CC[C@]43C)C2C1 | - | 9.7 µg/mL
CC(C)(C)OC(=O)N[C@@H](Cc1ccccc1)[C@H](O)[C@H](O)[C@H](Cc1ccccc1)NC(=O)OC(C)(C)C | trypan blue | 25 µM
O=C(O[C@@H]1Cc2c(O)cc3c(c2O[C@@H]1c1cc(O)c(O)c(O)c1)[C@@]1(O)C(=O)O[C@H]([C@@H](O)CO)C1(O)O3)c1cc(O)c(O)c(O)c1 | - | 40 µg/mL
COc1cc2c(cc1OC)[C@H](O)[C@H]1COC(=O)[C@@H]1[C@@H]2c1cc(OC)c(OC)c(OC)c1 | - | 7.53 µg/mL
CC(C)[C@H](NC(=O)OCc1nccs1)C(=O)N[C@@H](Cc1ccccc1)C(O)[C@H](Cc1ccccc1)NC(=O)[C@@H](NC(=O)OCc1nccs1)C(C)C | trypan blue | 75 µM
COc1ccc([C@H](O)CNC(=O)c2ccccc2)cc1 | cell count | 21.5 µg/mL
CC1c2cc(O)c(O)cc2CCN1C | - | >25 µg/mL
Nc1ncnc2c1ncn2[C@@H]1C[C@H](CO)[C@@H](F)C1 | - | 50 µg/mL
O=C(Oc1cc(O)cc2c1C[C@@H](OC(=O)c1cc(O)c(O)c(O)c1)[C@@H](c1cc(O)c(O)c(O)c1)O2)c1cc(O)c(O)c(O)c1 | - | 20 µg/mL
CC1(C)CC[C@]2(C(=O)O)CC[C@]3(C)C(=CCC4[C@@]5(C)CC[C@H](OC(=O)CCCC(=O)O)C(C)(C)C5CC[C@]43C)C2C1 | - | 14.6 µg/mL
CC1(C)Oc2ccc3ccc(=O)oc3c2[C@@H](OC(=O)c2cccc(Cl)c2)[C@@H]1OC1CCCCO1 | - | 40–200 µM
CC(=O)OC[C@]12[C@H](OC(C)=O)[C@H](OC(C)=O)[C@@H]3[C@@H](OC(C)=O)[C@@]14O[C@@]3(C)COC(=O)c1cccnc1CCC(C)(O)C(=O)O[C@@H]([C@H](OC(=O)c1ccoc1)[C@@H]2OC(C)=O)C4(C)O | - | >100 µg/mL
CC1(C)O[C@@H]1COc1c2occc2cc2ccc(=O)oc12 | - | 19.8 µg/mL
CN[C@@H]1[C@@H](O)[C@@H](O[C@@H]2[C@@H](O)[C@H](O[C@H]3O[C@H]([C@@H](C)O)[C@@H](O)[C@H](O)[C@H]3N)[C@@H](N)C[C@H]2N)OC[C@]1(C)O | MTT | ~200 µM
COc1cc(/C=C/C(=O)OCCCc2cc(OC)c3c(c2)[C@@H](COC(=O)/C=C/c2ccc(O)c(OC)c2)[C@H](c2ccc(O)c(OC)c2)O3)ccc1O | - | 19.43 µg/mL
Nc1ccn([C@H]2C=C(F)[C@@H](CO)O2)c(=O)n1 | - | 100 µg/mL

Repeating the final 4 entries:

{"compound": "CC1(C)O[C@@H]1COc1c2occc2cc2ccc(=O)oc12", "value": "19.8 µg/mL"}
{"compound": "CN[C@@H]1[C@@H](O)[C@@H](O[C@@H]2[C@@H](O)[C@H](O[C@H]3O[C@H]([C@@H](C)O)[C@@H](O)[C@H](O)[C@H]3N)[C@@H](N)C[C@H]2N)OC[C@]1(C)O", "read by": "MTT", "value": "~200 µM"}
{"compound": "COc1cc(/C=C/C(=O)OCCCc2cc(OC)c3c(c2)[C@@H](COC(=O)/C=C/c2ccc(O)c(OC)c2)[C@H](c2ccc(O)c(OC)c2)O3)ccc1O", "value": "19.43 µg/mL"}
{"compound": "Nc1ccn([C@H]2C=C(F)[C@@H](CO)O2)c(=O)n1", "value": "100 µg/mL"}